Reference: PubChem BioAssay AID1259414 (Drosophila RNAi Screening Center, 2018)
Test: 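Genome-wide screen for host control of endosymbiont load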 (primary screen). System: Drosophila JW18 cells infected with Wolbachia. Knock-down reagent: long dsRNA against Drosophila genes, 0.25 µg dsRNA per well of a 384-well plate. Timing: 5 days. Treatment: cells persistently infected with Wolbachia before knock-down; no added drug. Read-out: 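Imaged fluorescence in situ signal for Wolbachia 23S rRNA per DAPI-counted host cell, given as a robust z-score within each plate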. Reading the numbers: Wolbachia per cell robust z: higher = more Wolbachia per host cell than the plate typical. Hit rule: 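Hit when robust z is 1.5 or more, or -1.5 or less, in at least two of three replicates; excludes dsRNAs with several or no targets, genes not expressed in JW18 and well A1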.
In all, the deposit lists about 24,000 reagents; this is an unselected part of those that have a named target and a result. Over the whole deposit, about 1,210 (5%) got an active call. 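Inactive calls also include excluded dsRNAs with several or no targets, genes unexpressed in JW18, and well A1, regardless of score.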 Names joined by + are all predicted targets of the reagent.

gene knocked down | amplicon | Wolbachia per cell robust z, rep 1 | Wolbachia per cell robust z, rep 2 | Wolbachia per cell robust z, rep 3 | outcome
htk (GeneID 32877) | DRSC20029 | 1.26 | -0.137 | 0.62 | inactive
htk (GeneID 32877) | DRSC20031 | -2.69 | -2.82 | 0.493 | active
htk (GeneID 32877) | DRSC27508 | 1.46 | 1.18 | 1.44 | inactive
CG34445 (GeneID 5740761) | DRSC22404 | 1.08 | 0.0116 | -0.329 | inactive
CG34445 (GeneID 5740761) | DRSC41474 | -0.484 | 0.553 | -1.81 | inactive
CG42366 (GeneID 34319) | DRSC02760 | 1.43 | 1.15 | 0.712 | inactive
CG42366 (GeneID 34319) | DRSC23297 | -3.98 | -0.614 | -0.771 | inactive
CecA1 (GeneID 43596) | DRSC16603 | 0.624 | -3.64 | -5.32 | inactive
NijB (GeneID 40057) | DRSC09850 | -0.353 | -1.83 | 0.247 | inactive
CG16953 (GeneID 42437) | DRSC15167 | 0.295 | -0.326 | -0.25 | inactive
Spn42Dc (GeneID 35600) | DRSC05010 | -0.573 | -2.16 | -0.0976 | inactive
ogre (GeneID 45382) | DRSC18809 | -0.21 | -0.236 | -0.242 | inactive
ogre (GeneID 45382) | DRSC24730 | 0.854 | -0.28 | 0.133 | inactive
CG16713 (GeneID 33591) | DRSC00477 | -2.99 | -0.883 | -0.668 | inactive
HmgD (GeneID 37481) | DRSC04619 | -0.476 | -8.58 | -2.19 | active
HmgD (GeneID 37481) | DRSC26171 | -2.57 | -1.5 | -0.949 | inactive
sqa (GeneID 36002) | DRSC06693 | -1.36 | 0.104 | 0.00877 | inactive
sqa (GeneID 36002) | DRSC21635 | -0.957 | -1.04 | -1.44 | inactive
dob (GeneID 32436) | DRSC19948 | -0.549 | 0.613 | 0.904 | inactive
CG8671 (GeneID 35400) | DRSC03102 | -2.2 | -1.59 | -0.00468 | active
CG8671 (GeneID 35400) | DRSC03103 | -0.438 | -5.18 | -0.908 | inactive
CG8671 (GeneID 35400) | DRSC27179 | 1.33 | 0.485 | 0.421 | inactive
mRpS24 + TBC1d7 | DRSC14611 | 1.03 | 0.699 | 0.287 | inactive
DCX-EMAP (GeneID 39617) | DRSC10012 | -0.207 | -1.62 | -1.2 | inactive
DCX-EMAP (GeneID 39617) | DRSC10013 | -0.115 | -0.664 | -0.904 | inactive
DCX-EMAP (GeneID 39617) | DRSC23492 | -0.84 | -1.24 | -2.35 | inactive
CoRest (GeneID 32941) | DRSC19881 | -1.55 | -8.01 | -8.32 | active
CoRest (GeneID 32941) | DRSC21626 | -1.46 | 0.277 | 0.365 | inactive
CoRest (GeneID 32941) | DRSC22305 | -0.535 | 0.0374 | -0.625 | inactive
CoRest (GeneID 32941) | DRSC25141 | -0.301 | 1.57 | -7.56 | inactive
CG7168 (GeneID 42184) | DRSC16208 | -0.479 | -0.803 | -0.216 | inactive
CG43271 (GeneID 12798001) | DRSC21741 | 0.429 | -1.97 | -0.26 | inactive
Obp83cd (GeneID 40746) | DRSC12267 | 0.354 | 0.117 | 0.37 | inactive
hlk (GeneID 46017) | DRSC05021 | -1.56 | -2.14 | -0.814 | inactive
hlk (GeneID 46017) | DRSC05022 | 0.184 | -0.313 | -0.0649 | inactive
hlk (GeneID 46017) | DRSC26150 | 0.877 | 0.806 | 0.0747 | inactive
vnd (GeneID 31003) | DRSC18849 | -4.24 | -0.277 | 0.0609 | inactive
vnd (GeneID 31003) | DRSC22487 | -2.4 | -0.0194 | 0.441 | inactive
vnd (GeneID 31003) | DRSC25390 | 0.352 | -0.43 | -0.25 | inactive
vnd (GeneID 31003) | DRSC41284 | 0.887 | -2.77 | 0.345 | inactive
CG17359 (GeneID 39549) | DRSC10265 | -0.0128 | 0.119 | -0.663 | inactive
CG17359 (GeneID 39549) | DRSC24439 | -1.34 | 0.188 | -0.449 | inactive
tou (GeneID 36241) | DRSC22710 | -0.0372 | -1.23 | -0.0382 | inactive
tou (GeneID 36241) | DRSC27228 | 0.25 | -0.674 | -0.0788 | inactive
tou (GeneID 36241) | DRSC40748 | 0.0592 | -0.0925 | -0.277 | inactive
HIPP1 (GeneID 40302) | DRSC11748 | 0.556 | -2.58 | 0.372 | inactive
HIPP1 (GeneID 40302) | DRSC27992 | 0.0706 | -2.88 | -1.6 | active

A stretch of the results above:
gene knocked down | amplicon | Wolbachia per cell robust z, rep 1 | Wolbachia per cell robust z, rep 2 | Wolbachia per cell robust z, rep 3 | outcome
CG17359 (GeneID 39549) | DRSC10265 | -0.0128 | 0.119 | -0.663 | inactive
CG17359 (GeneID 39549) | DRSC24439 | -1.34 | 0.188 | -0.449 | inactive
tou (GeneID 36241) | DRSC22710 | -0.0372 | -1.23 | -0.0382 | inactive
tou (GeneID 36241) | DRSC27228 | 0.25 | -0.674 | -0.0788 | inactive
tou (GeneID 36241) | DRSC40748 | 0.0592 | -0.0925 | -0.277 | inactive
HIPP1 (GeneID 40302) | DRSC11748 | 0.556 | -2.58 | 0.372 | inactive
